Measured values from several laboratories, pooled; numbers as filed in NIAID ChemDB.

All rows: tests in culture; agent: HIV-1; read by: p24 / ELISA; endpoint: inhibition

An empty or dashed field is not shown. Inhibition is in % at the dose shown (toxicity tests: loss of growth or viability). Conditions beyond the fields shown may differ between rows.

SMILES,cell line,strain,tested at,result
CC1=C(C(=O)OCc2ccccc2)C(c2ccco2)NC(=O)N1,HEK293T,-,100 µM,22.5%
COC(=O)c1cn2c(c1C(=O)OC)Cc1ccccc1C2,PBL,IIIB,10 µM,1%
O=C(O)c1c[nH]c2c(C(=O)c3ccccc3)cccc2c1=O,HeLa,NL4-3,100 µM,<10%
O=C1c2c(O)c(O)cc(=O)n2CCN1Cc1ccc(Cl)cc1,MT-4,-,1 µM,≥95%
COC(=O)C1=C(C)N(c2ccc(C(=O)O)cc2)C(C)=C(C(=O)OC)C1c1ccccc1,HEK293T + MT-2,NL4-3,100 µM,27%
CC1(C)CC[C@]2(C(=O)NCCCCCCCCCCC(=O)O)CC[C@]3(C)C(=CC[C@@H]4[C@@]5(C)C[C@@H](O)[C@H](O)C(C)(C)[C@@H]5CC[C@]43C)[C@@H]2C1,MT-2,pNL4-3,10 µM,43.3%
CC1=C(C(=O)OCc2ccccc2)C(c2cccc([N+](=O)[O-])c2)NC(=O)N1,HEK293T,-,100 µM,52.2%
CC1(C)CC[C@]2(C(=O)NCC(=O)O)CC[C@]3(C)C(=CC[C@@H]4[C@@]5(C)C[C@@H](O)[C@H](O)C(C)(C)[C@@H]5CC[C@]43C)[C@@H]2C1,MT-2,pNL4-3,10 µM,-62.1%
CC1=C(C(=O)O)C(c2ccc(N)cc2)NC(=O)N1,HEK293T,-,100 µM,16.9%
CCOC(=O)c1cn2c(c1O)C(=O)N(Cc1cccc(F)c1)CC2,MT-4,IIIB,9.38 µM,>95%
CC1=C(C(=O)OCc2ccccc2)C(c2ccc(F)cc2)NC(=O)N1,HEK293T,-,100 µM,4.7%
O=C(O)c1cn(Cc2ccccc2)c2c(ccc3ccccc32)c1=O,HeLa,NL4-3,100 µM,<10%
O=C1c2c(O)c(O)cc(=O)n2CCN1Cc1ccccc1,MT-4,-,2.5 µM,≥95%
CC1=C(C(=O)OCc2ccccc2)C(c2ccccc2Cl)NC(=O)N1,HEK293T,-,100 µM,18.7%
CCc1[nH]c2ccccc2c(=O)c1C(=O)O,HeLa,NL4-3,100 µM,15%
CCOC(=O)c1c(C(=O)c2ccccc2F)c(C)n(C)c1C,PBL,IIIB,10 µM,0%
Cc1c2ccnc(Cl)c2cc2c3cn(C)ccc-3nc12,Macrophages,CLOZOT resistant strain,1 µM,97%
CN1CCc2c(c(O)c3n2CCN(Cc2ccc(F)cc2)C3=O)C1=O,MT-4,IIIB,0.39 µM,>95%
Cc1ccc2c(=O)c(C(=O)O)c[nH]c2c1C,HeLa,NL4-3,100 µM,<10%
CC1=C(C(=O)OCc2ccccc2)C(c2ccc([N+](=O)[O-])cc2)NC(=O)N1,HEK293T,-,100 µM,36.6%
COC(=O)c1c[nH]c(Cc2ccccc2)c1C(=O)OC,PBL,IIIB,10 µM,3%
O=C(O)c1c[nH]c2c(ccc3ccccc32)c1=O,HeLa,NL4-3,100 µM,71%
COC(=O)CNC(=O)[C@]12CCC(C)(C)C[C@H]1C1=CC[C@@H]3[C@@]4(C)C[C@@H](O)[C@H](O)C(C)(C)[C@@H]4CC[C@@]3(C)[C@]1(C)CC2,MT-2,pNL4-3,10 µM,24.5%
COC(=O)c1c(C(=O)OC)c(-c2ccccc2)n(-c2ccccc2)c1C,PBL,IIIB,10 µM,6%
CCOC(=O)c1cn2c(c1O)C(=O)N(Cc1ccc(Cl)cc1)CC2,MT-4,IIIB,1.02 µM,>95%
CCOC(=O)c1[nH]c(C)c(C(=O)O)c1C,PBL,IIIB,10 µM,0%
COC(=O)[C@@H](NC(=O)[C@]12CCC(C)(C)C[C@H]1C1=CC[C@@H]3[C@@]4(C)C[C@@H](O)[C@H](O)C(C)(C)[C@@H]4CC[C@@]3(C)[C@]1(C)CC2)C(C)C,MT-2,pNL4-3,25 µM,88.9%
COC(=O)C1=C(C)N(c2ccc(C(=O)O)cc2)C(C)=C(C(=O)OC)C1/C=C/c1ccccc1,HEK293T + MT-2,NL4-3,100 µM,30.57%
CC1=C(C(=O)OCc2ccccc2)C(c2ccc(Cl)cc2)NC(=O)N1,HEK293T,-,100 µM,47.5%
COC(=O)C1=C(C)N(c2ccc(C(=O)O)cc2)C(C)=C(C(=O)OC)C1c1ccc([N+](=O)[O-])o1,HEK293T + MT-2,NL4-3,100 µM,30%
C[C@H](NC(=O)[C@]12CCC(C)(C)C[C@H]1C1=CC[C@@H]3[C@@]4(C)C[C@@H](O)[C@H](O)C(C)(C)[C@@H]4CC[C@@]3(C)[C@]1(C)CC2)C(=O)O,MT-2,pNL4-3,10 µM,-24.2%
CCCCn1c(C)c(C(=O)OC)c(C(=O)OC)c1Cc1ccccc1,PBL,IIIB,1 µM,11%

Repeating the final 3 entries:

SMILES | cell line | strain | tested at | result
COC(=O)C1=C(C)N(c2ccc(C(=O)O)cc2)C(C)=C(C(=O)OC)C1c1ccc([N+](=O)[O-])o1 | HEK293T + MT-2 | NL4-3 | 100 µM | 30%
C[C@H](NC(=O)[C@]12CCC(C)(C)C[C@H]1C1=CC[C@@H]3[C@@]4(C)C[C@@H](O)[C@H](O)C(C)(C)[C@@H]4CC[C@@]3(C)[C@]1(C)CC2)C(=O)O | MT-2 | pNL4-3 | 10 µM | -24.2%
CCCCn1c(C)c(C(=O)OC)c(C(=O)OC)c1Cc1ccccc1 | PBL | IIIB | 1 µM | 11%